What was measured:
[1] = target: MAb A12A3 [mouse]; assay: indirect ELISA
[2] = target: HPV58 L1 VLP (human papillomavirus type 58, UniProt P26535); assay: cell-based or functional assay
[3] = target: T1, HPV59 L1 VLP (human papillomavirus type 59); assay: cell-based or functional assay
T1 chain: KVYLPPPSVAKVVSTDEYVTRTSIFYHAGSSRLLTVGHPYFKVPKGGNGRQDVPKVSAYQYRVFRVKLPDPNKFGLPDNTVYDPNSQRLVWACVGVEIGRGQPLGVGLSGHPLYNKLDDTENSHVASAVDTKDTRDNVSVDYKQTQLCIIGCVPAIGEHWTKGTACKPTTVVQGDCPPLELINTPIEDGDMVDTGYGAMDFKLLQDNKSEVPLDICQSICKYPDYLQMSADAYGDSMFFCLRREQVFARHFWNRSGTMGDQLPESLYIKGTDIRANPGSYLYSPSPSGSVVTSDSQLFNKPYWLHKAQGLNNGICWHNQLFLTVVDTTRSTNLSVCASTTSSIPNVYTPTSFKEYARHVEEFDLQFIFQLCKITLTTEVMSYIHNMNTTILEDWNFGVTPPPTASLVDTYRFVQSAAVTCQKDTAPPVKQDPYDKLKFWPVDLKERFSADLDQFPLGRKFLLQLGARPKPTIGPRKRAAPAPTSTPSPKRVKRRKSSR

[4] = target: T2, HPV59 L1 pentamer (human papillomavirus type 59); assay: crystal structure; conditions: both partners purified
T2 construct: also called HPV59p; HPV59 pentamer
T2 chain: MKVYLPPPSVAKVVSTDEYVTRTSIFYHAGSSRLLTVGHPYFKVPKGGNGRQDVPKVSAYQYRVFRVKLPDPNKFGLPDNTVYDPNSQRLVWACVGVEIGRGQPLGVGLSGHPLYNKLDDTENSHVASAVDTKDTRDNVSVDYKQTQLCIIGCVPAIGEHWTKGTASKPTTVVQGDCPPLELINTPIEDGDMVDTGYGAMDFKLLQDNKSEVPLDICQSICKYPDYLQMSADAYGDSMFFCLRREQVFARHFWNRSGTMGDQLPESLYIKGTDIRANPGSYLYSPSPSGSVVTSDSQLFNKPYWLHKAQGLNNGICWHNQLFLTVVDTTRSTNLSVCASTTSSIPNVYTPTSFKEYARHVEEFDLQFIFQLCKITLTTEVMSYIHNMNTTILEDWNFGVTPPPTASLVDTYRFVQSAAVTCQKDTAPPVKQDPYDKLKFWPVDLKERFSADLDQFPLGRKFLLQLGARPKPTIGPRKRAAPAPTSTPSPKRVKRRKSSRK

B1: HPV58 L1 VLP mutant S168A [human papillomavirus type 58] / MAb A12A3 [mouse] (protein)
parent chain 1: EVQLQQSGAELVRPGALVKLSCKASGFNIKDYYMHWVKQRPEQGLEWIGWIDPENGKTIYDPRFRGKASITADTSSNTAYLQLSSLTSEDAAVYYCATSNYRYDRSFDYWGQGTTLTVSAKTTPPSVYPLAPGCGDTTGSSVTSGCLVKGYFPEPVTVTWNSGSLSSSVHTFPALLQSGLYTMSSSVTVPSSTWPSQTVTCSVAHPASSTTVDKKL
parent chain 2: DIQMTQSPSSLFASLGGKVTITCKASQDINKYIAWFQHKPGKGPRLLIHYTFTLQPGIPSRFSGSGSGRDYSFSISNLEPEDIATYYCLQYHNLYTFGGGTKLEIKRADAAPTVSIFPPSSEQLTSGGASVVCFLNNFYPKDINVKWKIDGSERQNGVLNSWTDQDSKDSTYSMSSTLTLTKDEYERHNSYTCEATHKTSTSPIVKSFNRNEC
parent chain 3: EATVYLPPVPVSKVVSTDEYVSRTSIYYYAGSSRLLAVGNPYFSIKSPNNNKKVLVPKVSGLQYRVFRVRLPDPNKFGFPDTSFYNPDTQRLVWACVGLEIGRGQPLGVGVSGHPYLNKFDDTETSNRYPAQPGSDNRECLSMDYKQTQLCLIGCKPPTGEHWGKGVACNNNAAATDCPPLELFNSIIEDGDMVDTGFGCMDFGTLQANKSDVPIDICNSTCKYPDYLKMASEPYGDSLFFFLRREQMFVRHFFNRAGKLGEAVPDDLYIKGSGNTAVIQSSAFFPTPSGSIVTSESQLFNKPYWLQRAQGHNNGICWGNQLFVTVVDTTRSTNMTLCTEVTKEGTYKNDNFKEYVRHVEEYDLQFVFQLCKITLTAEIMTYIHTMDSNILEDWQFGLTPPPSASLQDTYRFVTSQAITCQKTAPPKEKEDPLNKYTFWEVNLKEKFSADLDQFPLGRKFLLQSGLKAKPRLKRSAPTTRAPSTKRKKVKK
**Q.** Which EC50 [1] does the source give for B1 here?
**A.** 0.0099 µg/mL

B2: HPV58 L1 VLP mutant D154A [human papillomavirus type 58] / MAb A12A3 [mouse] (protein)
parent chain 1: B1 parent chain 1
parent chain 2: B1 parent chain 2
parent chain 3: B1 parent chain 3
**Q.** Which EC50 [1] does the source give for B2 here?
**A.** 0.0237 µg/mL

B3: HPV58 L1 VLP mutant N308A [human papillomavirus type 58] / MAb A12A3 [mouse] (protein)
parent chain 1: B1 parent chain 1
parent chain 2: B1 parent chain 2
parent chain 3: B1 parent chain 3
**Q.** How did the EC50 [1] turn out when B3 was run?
**A.** 0.0194 µg/mL

B4: HPV58 L1 VLP mutant N170A [human papillomavirus type 58] / MAb A12A3 [mouse] (protein)
parent chain 1: B1 parent chain 1
parent chain 2: B1 parent chain 2
parent chain 3: B1 parent chain 3
**Q.** How did the EC50 [1] turn out when B4 was run?
**A.** 0.0109 µg/mL

B5: HPV58 L1 VLP mutant Q165A [human papillomavirus type 58] / MAb A12A3 [mouse] (protein)
parent chain 1: B1 parent chain 1
parent chain 2: B1 parent chain 2
parent chain 3: B1 parent chain 3
**Q.** B5 was tested. Which EC50 [1] did it give?
**A.** 0.0149 µg/mL

B6: MAb A12A3 (antibody, V domains shown)
VH: EVQLQQSGAELVRPGALVKLSCKASGFNIKDYYMHWVKQRPEQGLEWIGWIDPENGKTIYDPRFRGKASITADTSSNTAYLQLSSLTSEDAAVYYCATSNYRYDRSFDYWGQGTTLTVSA
VL: DIQMTQSPSSLFASLGGKVTITCKASQDINKYIAWFQHKPGKGPRLLIHYTFTLQPGIPSRFSGSGSGRDYSFSISNLEPEDIATYYCLQYHNLYTFGGGTKLEIK
**Q.** Which “IC50 of neutralisation of HPV58 pseudovirus (L1/L2 PsV, 293FT cells, GFP by flow cytometry)” value [2] does the source give for B6 here?
**A.** 0.0017 µg/mL

B7: MAb 28F10 (antibody, V domains shown)
VH: DVKLVESGGGLVKPGGSLKLSCAASGFPFSDYTMSWIRQTPEKRLEWVASISSGGTYTYYPDTVKGRFTISRDNAKNTLYLQMSSLKSEDTAMFYCTRASPYYDYDEGYMDYWGQGTSVTVSS
VL: DVVMTQTPLSLPVSLGDQASISCRSSQSLVHSNGNTYLHWYLQKSGQSPKLLIYKVSNRFSGVPDRFSGSGSGTDFTLKISRVEAEDLGVYFCSQSTHVPFTFGAGTKLELK
**Q.** With B7 as the binder, how does the “IC50 of neutralisation of HPV59 WT PsV (experiment of Fig. 7E)” value [3] read?
**A.** 0.0149 µg/mL

**Q.** And the “IC50 of neutralisation of HPV59 pseudovirus (L1/L2 PsV, 293FT cells, GFP by flow cytometry)” value [3]?
**A.** 0.0143 µg/mL

B8: A12A3 Fab (Fab, V domains shown)
VH: B6 VH
VL: B6 VL
notes: also called Fab fragment of A12A3; source: papain digestion of MAb A12A3, purified with DEAE-5PW exchange
**Q.** For B8, which “IC50 of neutralisation of HPV58 pseudovirus (L1/L2 PsV, 293FT cells, GFP by flow cytometry)” value [2] is on record?
**A.** 0.0638 µg/mL

B9: 28F10 Fab (Fab, V domains shown)
VH: B7 VH
VL: B7 VL
notes: also called Fab fragment of 28F10; source: papain digestion of MAb 28F10, purified with DEAE-5PW exchange
**Q.** Which “stoichiometry N” value [4] does the source give for B9 here?
**A.** 5 Fab per pentamer

**Q.** And the “IC50 of neutralisation of HPV59 pseudovirus (L1/L2 PsV, 293FT cells, GFP by flow cytometry)” value [3]?
**A.** 0.739 µg/mL

Reference: publication PMC5615192 (mBio, 2017)
